Experimental data taken from article PMC5549992 (PLoS Pathogens, 2017).

T1: His6-tagged Rv2623WT derived from the E. coli-based pQE80L-Rv2623 expression construct (M. tuberculosis, UniProt P9WFD7 1-297)
T1 construct: not shown: His6, N-terminal, kept
T1 sequence: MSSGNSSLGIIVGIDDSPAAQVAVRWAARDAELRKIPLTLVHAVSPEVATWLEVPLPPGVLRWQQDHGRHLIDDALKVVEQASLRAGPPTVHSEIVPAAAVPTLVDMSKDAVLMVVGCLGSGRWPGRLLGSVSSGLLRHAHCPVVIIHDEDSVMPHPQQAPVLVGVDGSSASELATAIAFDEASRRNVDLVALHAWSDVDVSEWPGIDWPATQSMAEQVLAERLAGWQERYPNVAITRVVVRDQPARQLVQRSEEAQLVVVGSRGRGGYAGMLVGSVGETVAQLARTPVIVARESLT

T2: Histidine (His6)-tagged Rv2623 expressed in M. smegmatis mc2155 (M. tuberculosis, UniProt P9WFD7 1-297)
T2 construct: not shown: His6, N-terminal, kept
T2 sequence: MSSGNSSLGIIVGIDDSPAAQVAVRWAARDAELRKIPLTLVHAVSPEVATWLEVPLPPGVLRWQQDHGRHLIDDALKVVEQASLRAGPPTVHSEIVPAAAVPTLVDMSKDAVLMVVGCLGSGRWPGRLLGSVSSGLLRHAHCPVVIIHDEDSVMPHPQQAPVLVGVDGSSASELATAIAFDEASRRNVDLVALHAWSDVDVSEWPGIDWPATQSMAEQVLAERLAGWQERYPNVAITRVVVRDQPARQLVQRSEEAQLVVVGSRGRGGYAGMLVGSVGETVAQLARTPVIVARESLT


How the values were obtained:
[1] = biological target: T1, His6-tagged Rv2623WT derived from the …; experiment: pull-down; conditions: both partners purified
[2] = biological target: T2, Histidine (His6)-tagged Rv2623 …; experiment: pull-down; conditions: both partners purified

Binder | binding result [1] | binding result [2]
cMyc-tagged FHA I (first 120 amino acids of Rv1747) expressed via LIC vector pMCSG7 (domain or fragment) not shown | binds | 
FLAG-tagged FHA I (first 100 amino acids of Rv1747) expressed in M. smegmatis mc2155 (domain or fragment, not shown: FLAG, N-terminal, kept) not shown |  | binds
